In patent US20200123233A1, “Amino acid sequences directed against envelope proteins of a virus and polypeptides comprising the same for the treatment of viral diseases” (published 2020):

B1: IV34 (VHH)
VHH: QVQLQESGGGLVQTGGSLRLSCAASGGTFGGYAMAWFRQAPGKGREFVASVIWNGGTTNYLDSVKDRFTVSRDMANNTMYLQMNSLKPEDTAVYICGAASGYRSTDRLSEPGWVNYWGQGTQVTVSS
B2: IV29 (VHH)
VHH: QVQLQESGGGLVQAGGSLRLSCVASGRTLDNYAMGWFRQAPGAEREFVGAISANGEDTQYTESVQGRFTISKDNAKSTVYLDMNSLKPEDTAVYYCAADRKTLTYYTSRLRSRYEYWGQGTQVTVSS
B3: IV31 (VHH)
VHH: B2 VHH with E6Q, V23A, D30N, N54S, E56D, D57S, Y80V, R100G, Y105F, E115D
B4: IV144 (VHH)
VHH: QVQLQQSGGGLVQAGGSLRLSCAASGNIISFNPMGWHRQAPGKQRELVASITSGGSISYVDSVKGRFTISRDSAKNTIYLQMNSLKPEDTAVYFCAGEGPRRRGSTWYTDTYWGQGTQVTVSS
B5: IV157 (VHH)
VHH: QVQLQQSGGGLVQPGGSLRLSCAASRSDISFNPMGWYRQAPGKQRELVATISNGGTTNYADSVKGRFTISQDNAKTTVYLQMNSLKPEDTAVYYCNGRGPRYATTGWYTDDYWGQGTQVTVSS
B6: IV156 (VHH)
VHH: B5 VHH with D28G, I29F, S52T, N53S, Q71T, Y79F, Y102R, A103G, T105A, Y108F
B7: IV160 (VHH)
VHH: B5 VHH with Q6E
B8: IV124 (VHH)
VHH: QVQLQESGGGLVQPGGSLRLSCAASGSIFSINRMGWYRQAPGKQRELVAAITYGGSTNYADSVKGRFTISRDNAKNTVYLQMNSLKPEDTAVYYCNAGSTYSPFGDKYDYWGQGTQVTVSS
B9: IV146 (VHH)
VHH: QVQLQQSGGGLVQAGGSLRLSCAASGSSFSINAMGWYRQAPGKQRELVAAISSGGSANYADSVKGRFTISRDNAKNTVYLQMNSLKPEDTAVYYCNAGSRFNPFGSAYDYWGQGTQVTVSS
B10: IV125 (VHH)
VHH: QVQLQQSGGGLVQAGGSLRLSCAASGSAFSINTMGWYRQAPGKQRELVAVISSGSGGSTNYADSVKGRFTISRDNAKNTVYLHMNSLKPEDTAVYYCNAGSRFNPFGSAYDYWGQGTQVTVSS
B11: IV153 (VHH)
VHH: QVQLQESGGGLVQAGGSLRLSCAFSGDTFSFYTLGWFRQAPGKEREFVAATSNIGGYIYYGDSVKGRFTISGDNAKNTVYLQMSSLKPEDTAVYYCAATLRSGSMWYQNVRVNDNPYWGQGTQVTVSS

Molecular target: authentic influenza antigen of strain A/PR/8/34 (ATCC VR-1469), serotype H1N1 (influenza A virus A/PR/8/34 (H1N1), UniProt P03452 18-565)

Binder	Extinction at 450 nm in ELISA [extinction at 450 nm]
B1	0.05
B2	0.053
B3	0.045

Molecular target: authentic influenza antigen of A/PR/8/34 (ATCC VR-1469), serotype H1N1 (influenza A virus A/PR/8/34 (H1N1), UniProt P03452 18-565)

Binder	Extinction at 450 nm in ELISA [OD450]
B4	0.12
B5	0.046
B6	0.048
B7	0.052
B8	0.413
B9	0.299
B10	0.461
B11	0.045

Where a chain is given by its changes, count along the chain named.
